Substitutions are numbered along the chain they refer to. Human monoclonal antibodies against the spike receptor-binding domain (heavy:light variable regions). IC50 against pseudoviruses bearing the spike of naturally observed variants; lower = stronger; >10 µg/ml means not reached at the top dose. No active / inactive call. The stated detection limit is 0.0005 µg/ml; values near or below 0.001 µg/ml lie at the floor of the assay.
B1: BD57-0169 (protein)
chain 1: QVQLQESGPGLVKPSQTLSLTCTVSGGSISSGGYYWSWIRQHPGKGLEWIGHIFYSGSTNYNPSLRSRVSISVDTSKSQFSLKLTSVTAADTAVYYCARQSGGDRYCGSVYCHVFDFWGQGTLVTVSS
chain 2: SYELTQALSVSVALGQTARITCGGNNIGSYNVQWYQQKPGQAPVLVIHRDYNRPSGIPERFSGSNSGNTATLTISRAQAGDEADYYCQVWDSSAAVFGGGTKLTVL
B2: BD57-0170 (protein)
chain 1: QVQLVQSGAEVKKPGSSVKVSCKASGGTFITYAINWVRQAPGQGLEWMGGITPIVNIGNYAQKFQGRVTITADKSTTTVYLELSRLRSEDTAVYYCARLREDITVVPADEPNVFNVWGQGTMITVSS
chain 2: DIVMTQSPDSLAVSLGERATINCKSSQSLLHSFNNKNYLAWYQQKPGQPPKLLIYWASTRESGVPDRFSGSGSGTDFTLTISSLQAEDVALYYCQQYYTSPMYTFGQGTKLEIK
B3: BD57-0173 (protein)
chain 1: QVQLVQSGAEVKKPGASVKVSCRASHYTFSTYTITWVRQAPGRGLEWLGWISAYNGDTKYSQKLQGRVSMTTDTSTNTAYMELRSLRSDDTAVYYCASDFGDAGLISGLDVWGQGTTVTVSS
chain 2: DIQMTQSPSSLSASVGDRVTVTCRASQSIRTYLHWYQQKPGKAPKLLIFAASSLQSGVPSRFSGSGSGTDFTLTISSLQPEDFATYYCQQSYSSPHTFGPGTKVDIK
B4: BD57-0175 (protein)
chain 1: EVRLVQSGAEVKKPGDSLKISCQGLGYTFSNYWIGWVRQMSGKGLEWMGIIYNTDSDVRYNPSFQGQVTISADNSISTAYLQWTSLKASDSAMYYCARQHTNGWWVGDYWGQGTLVTVSS
chain 2: EIVMTQSPTALSVSPGERATLSCRASQSVISNLAWFQQKPGQAPRLLIYGASTRATGIPARFSGSGSGTEFTLTISSLQSEDFAVYYCHQYNNWPPWTFGQGTQVEMK
B5: BD57-0178 (protein)
chain 1: QVQLVQSGAEMKKPGSSVKVSCKASGGPFSSYSISWVRQAPGQGLEWMGGIIPILGTTNYAQKFQGRVRITADDSTSTAYMELSSLRSNDTAVYYCATPFRGAAGAYYYYYMDVWGKGTTVIVSS
chain 2: DIQMTQSPSSLSASVGDRVTITCQASQGISNFLNWYQQRPGKAPKLLIYDASNLETGVPSRFSGSGSGTYFTLTISSLQPEDFATYYCQQYDNVRLNFGGGTKVDIK
B6: BD57-0187 (protein)
chain 1: QVQLVESGGGVVQPGRSLRLSCAASGFTFSSYAMHWVRQAPGKGLEWVAVLSYAGSHIYYADSVKGRFTISRDNSKNTLYLQMKSLRAEDTAVYYCARDSGDGIIGTTGWFGPWGQGTLVTVSA
chain 2: SYVLTQPPSVSVAPGQTARIPCEENNIGSKSVHWYQQKPGQAPVLVVYDDSDRPSGIPERFSGSNSGNTATLTINRVEAGDEADYYCQVWDGSSDPFVFGSGTKVTVL
B7: BD57-0188 (protein)
chain 1: EVLLVESGGGLVQPGRSLRLSCVASGFIFDDYGMHWVRQAPGKGLEWVSGISWNGDSKAYADSVKGRFTVSRDDAKNSLYLQMNSLRPEDTAVYYCAKVASTTWFYRGWFDYWGQGTLVTVAP
chain 2: EIVLTQSPGTLSLSPGERATLSCRASQSVSGSYLAWYQRKPGQAPRLLIYGASSRATDIPDRFSGSGSGADFTLIISRLEPEDFAVYYCQQYGNSPLTFGGGTKVEIK
B8: BD57-0190 (protein)
chain 1: QVQLVESGGGVVQPGRSLRLSCAASGFTFSTYAMHWVRQAPGKGLEWVATISYDGGSKFYADSVKGRFTISRDNSKNTLYLQMNSLRAEDTAVYYCAREMIVMLIITGPFDYWGQGTLVTVSS
chain 2: DIQMTQSPSSLSASVGDRVTITCRASQSISNYLNWYQQKPGKAPNLLIYDASSLQSGVPSRFSGSGSGTDFTLTISSLQPEDFATYYCQQSYSSPPLTFGGGTKVEIK
B9: BD57-0193 (protein)
chain 1: EVQLVQSGPEVKKPGESLKISCKGSGYIFTNYWIGWVRQMPGKGLEWMGIIYPGDSDTKYSPSFQGQVTFSVDESISTAYLQWSSLKASDTAIYYCARHLVPYYYDSSGYSEFDFWGQGTLVTVSS
chain 2: EIVLTQSPGTLSLSPGERATLSCRASQGISSDYLAWYQQKPGQAPRLLIYGASSRATGIPDRFSGGGSGTDFTLTISRLEREDFAVYHCQQYGYSPLTFGGGTKLEIK
B10: BD57-0209 (protein)
chain 1: EVQLLESGGGLVQPGGSLRLSCAASGFTFSSYAMTWVRQAPGKGLEWVSSISRSGDITTYADSVKGRFSFSRDNSKNTLFLQMNSLRAEDTAIYYCAKDSDLDRNVEVWDYWGQGTLVTVSS
chain 2: B8 chain 2 with S30R, N31Y, D50G, Q55K, P80R, S94T, L97Y, G101Q, V105L
B11: BD57-0210 (protein)
chain 1: EVQLVESGGGLVQPGGSLRLSCAVSGFTVSSNFMTWVRQAPGKGLEWVSLIHSGGSTFYADSVKGRFTISRHTSKNTVYLQMNTLGAEDTAVYYCARSEWLRGAFDLWGQGTMVTVSS
chain 2: NFMLTQPHSVSESPGKTVTISCTGSSGSIASNYVQWYQQRPGSAPTNLIYEDNQRPSGVPDRFSGSIDSSSNSASLTISGLKTEDEADYYCQSYDGNNLKWVFGGGTKLTVL
B12: BD57-0211 (protein)
chain 1: QITLKESGPTLVKPTQTLTLTCSFSGFSLATDGVGVGWFRQPPGKAPEWLALIYWNDDHHYSPSLKTRLTITKDTSKNQVVLKLTNMDPVDTGTYYCAHTYDFWSGYSGGWGQGILVTVSS
chain 2: DIQMTQSPSSLSASVGDRITITCRASQPISSYLNWFQQKPGKAPKLLIYAAFNFQSGVPSRFSGSGSGTDFTLTINSLQPEDFATYYCQQTYSFPWTFGQGTKVEIK

Tests used:
Experiment in all cases: pseudovirus neutralization IC50; higher = weaker neutralization
[1] = molecular target: SARS-CoV-2 Omicron BA.1 spike pseudovirus
Procedure: (§1)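 Single-round VSV luciferase pseudovirus mixed with antibody dilutions for 1 h and put on Huh-7 cells for about a day; IC50 from the dose curve.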

[2] = molecular target: SARS-CoV-2 Omicron BA.2 spike pseudovirus
Procedure: as §1

[3] = molecular target: SARS-CoV-2 Omicron BA.2.75 spike pseudovirus
Procedure: as §1

[4] = molecular target: SARS-CoV-2 Omicron BA.5 spike pseudovirus
Procedure: as §1

[5] = molecular target: SARS-CoV-2 Omicron BQ.1.1 spike pseudovirus
Procedure: as §1

[6] = molecular target: SARS-CoV-2 Omicron XBB spike pseudovirus
Procedure: as §1

[7] = molecular target: SARS-CoV-2 early D614G spike pseudovirus
Procedure: as §1

Binder	pseudovirus neutralization IC50 [1] [µg/mL]	pseudovirus neutralization IC50 [2] [µg/mL]	pseudovirus neutralization IC50 [3] [µg/mL]	pseudovirus neutralization IC50 [4] [µg/mL]	pseudovirus neutralization IC50 [5] [µg/mL]	pseudovirus neutralization IC50 [6] [µg/mL]	pseudovirus neutralization IC50 [7] [µg/mL]
B1	> 10	0.392	> 10	1.09	> 10	> 10	0.00116
B2	0.000736	0.000746	0.000989	0.000526	3.9	0.107	0.000663
B3	2.22	2.62	0.743	4.24	> 10	6.18	0.487
B4	> 10	2.08	> 10	7.31	> 10	> 10	0.00105
B5	2.08	3.87	2.98	4.63	7.71	2.55	4.99
B6	2.65	2.76	3.33	2.76	> 10	2.13	> 10
B7	> 10	> 10	> 10	> 10	> 10	> 10	> 10
B8	> 10	> 10	> 10	> 10	> 10	> 10	> 10
B9	3.83	3.9	4.1	3.97	> 10	3.56	> 10
B10	> 10	> 10	> 10	> 10	> 10	> 10	> 10
B11	1.31	1.85	2.55	1.65	2.65	2.61	0.197
B12	1.81	2.74	1.45	3.39	3.44	2.85	1.84

From the supplement of paper PMC9931576
